Compound potency records, mixed from different reports. Data source: NIAID ChemDB in PubChem.

Shared fields: target-level tests

Fold resistance: result on the changed form divided by that on wild type.

compound,endpoint,target,dose,changes,method,organism,result
CCOC(=O)C(=O)CC(=O)/C=C/c1cc(-c2ccccc2)cn1Cc1ccc(F)cc1,inhibition,RNase H,100 µM,Y501A,substrate cleavage / fluorescence,HIV-1,0%
CC1=C(CCC(=O)O)c2cc3nc(cc4[nH]c(cc5[nH]c(cc1n2)c(CCC(=O)O)c5C)c(CCC(=O)O)c4C)C(CCC(=O)O)=C3C,inhibition,gp120,60 µg/mL,-,-,HIV-1,19.5%
COc1cccc(Cn2cccc2/C=C/C(=O)CC(=O)C(=O)O)c1,IC50,RNase H,-,R557A,substrate cleavage / fluorescence,HIV-1,>100 µM
Nc1nc2c(ncn2[C@H]2CC[C@@H](COP(=O)(O)OP(=O)(O)OP(=O)(O)O)O2)c(=O)[nH]1,fold resistance,Reverse transcriptase,-,RT-W266S,nucleotide incorporation,HIV,>41.7
Cc1ccc(Cl)cc1Nc1nc(C(F)(F)F)ccc1C(=O)NN1CCN(c2cccc(Cl)c2)CC1,fold resistance,RNase H,-,V108A,RNase H / absorbance,HIV-1,>5.5
Nc1nc2c(ncn2[C@H]2CC[C@@H](COP(=O)(O)OP(=O)(O)OP(=O)(O)OP(=O)(O)OC[C@H]3O[C@@H](n4cnc5c(N)ncnc54)[C@H](O)[C@@H]3O)O2)c(=O)[nH]1,fold resistance,Reverse transcriptase,-,RT-M41L T215Y,nucleotide incorporation / radiometric,HIV,0.29
Cc1ccc(Cl)cc1Nc1nc(C(F)(F)F)ccc1C(=O)NN1CCN(c2ccccc2)CC1,IC50,RNase H,-,-,RNase H / absorbance,HIV-1,>100 µM
COC(=O)c1ccc(C(=O)NCc2ccncc2)c(O)c1O,IC50,Integrase,-,-,strand transfer,HIV,<0.5 µM
CCC(=O)Nc1cn2ccn(Cc3cccc(Cl)c3)c(=O)c2c(O)c1=O,IC50,Integrase,-,-,ELISA,HIV-1,<0.01 µM
C=CC1=C(C)C2=NC1=CC1=NC(=CC3=C(C)C(=C([O-])[O-])C(=N3)C(CC(=O)O)=C3NC(=C2)C(C)C3CCC(=O)O)C(CC)=C1C.[Mg+2],IC50,gp120,-,-,-,HIV-1,<60 µg/mL
COC(=O)c1ccc(C(=O)NCc2ccc([N+](=O)[O-])cc2)c(O)c1O,IC50,Integrase,-,-,strand transfer,HIV,<0.5 µM
C=Cc1c(C)c2cc3nc(cc4[nH]c(cc5nc(cc1[nH]2)C(C)=C5CO)c(C)c4CCC(=O)O)C(CCC(=O)O)=C3C,inhibition,gp120,60 µg/mL,-,-,HIV-1,89.5%
O=C(O)[C@@H]1CC[C@H](NS(=O)(=O)c2ccc(N3CCC(CCCC4CCN(S(=O)(=O)c5ccc(F)cc5)CC4)CC3)c(Cl)c2)C1,IC50,gp120 + CD4,-,-,fluorescence,HIV-1,>10 µM
CC1=C(CCC(=O)O)c2cc3[nH]c(cc4nc(cc5[nH]c(cc1n2)c(CCC(=O)O)c5CC(=O)O)C(CCC(=O)O)=C4C)c(CCC(=O)O)c3CC(=O)O,inhibition,gp120,60 µg/mL,-,-,HIV-1,40.3%
Nc1ccn([C@@H]2CS[C@H](COP(=O)(O)OP(=O)(O)OP(=O)(O)O)O2)c(=O)n1,Ki,Reverse transcriptase,-,RT-L74V,radiometric,HIV,0.354 µM
CCOC(=O)C(=O)CC(=O)/C=C/c1cccn1Cc1ccc(C)cc1C,IC50,RNase H,-,Q475A,substrate cleavage / fluorescence,HIV-1,>100 µM
C=Cc1c(C)c2cc3nc(cc4[nH]c(cc5nc(cc1[nH]2)C(C)=C5CC)c(C)c4C(=O)O)C(CCC(=O)O)=C3C,IC50,gp120,-,-,-,HIV-1,<60 µg/mL
O=C(/C=C/c1cccn1Cc1ccc(F)cc1)CC(=O)C(=O)O,IC50,RNase H,-,-,substrate cleavage / fluorescence,HIV-1,16.1 µM
CCC(=C/[C@H](C)C/C=C/C(C)=C/[C@@H](C)C(=O)[C@@H](C)[C@H](O)[C@@H](C)C/C(C)=C/C(=O)O)/C=C/[C@@H]1OC(=O)C=C[C@@H]1C,IC50,Rev:RRE,-,-,luciferase,HIV-1,0.0005 µM
O=C1c2c(O)c(=O)c(-c3cnccn3)cn2CCN1Cc1ccc(F)c(Cl)c1,IC50,Integrase,-,-,ELISA,HIV-1,0.01–0.1 µM
O=S(=O)(c1cnc(N2CCC(CCCC3CCN(S(=O)(=O)c4c(Cl)ccc5nonc45)CC3)CC2)c(Br)c1)N1CCCNCC1,IC50,gp120 + CD4,-,-,fluorescence,HIV-1,>10 µM
CNC(=O)c1cn2c(c(O)c1=O)C(=O)N(Cc1ccc(F)c(F)c1)CC2,IC50,Integrase,-,-,ELISA,HIV-1,0.1–1 µM
N[C@H]1[C@@H](O[C@H]2[C@H](O)[C@@H](O)[C@H](N)C[C@@H]2N)O[C@H](CNC(=O)c2ccc3ccc4cccc5ccc2c3c45)[C@@H](O)[C@@H]1O,IC50,Rev:RRE,-,-,fluorescence,HIV-1,19 µM
CC(C)=CCN1Cc2cccc3[nH]c(=S)n(c23)C[C@@H]1C,Ki,Reverse transcriptase,-,-,nucleotide incorporation,HIV,0.52 µM
Cc1cn([C@H]2CC[C@@H](COP(=O)(O)OP(=O)(O)OP(=O)(O)O)O2)c(=O)[nH]c1=O,fold resistance,Reverse transcriptase,-,RT-W88G,nucleotide incorporation / radiometric,HIV,3.45
COC(=O)c1ccc2c(=O)n(Cc3ccccc3)c(=O)oc2c1O,IC50,Integrase,-,-,strand transfer,HIV,<0.5 µM
Cc1ccc(Cn2cccc2/C=C/C(=O)CC(=O)C(=O)O)c(C)c1,inhibition,RNase H,100 µM,N474A,substrate cleavage / fluorescence,HIV-1,16%
Nc1nc2c(ncn2[C@H]2CC[C@@H](COP(=O)(O)OP(=O)(O)OP(=O)(O)O)O2)c(=O)[nH]1,fold resistance,Reverse transcriptase,-,RT-L74V T215Y,-,HIV,7.14
Nc1nc2c(ncn2[C@H]2CC[C@@H](COP(=O)(O)OP(=O)(O)OP(=O)(O)O)O2)c(=O)[nH]1,fold resistance,Reverse transcriptase,-,RT-K65R,nucleotide incorporation / radiometric,HIV,4.16
Cc1cc(S(=O)(=O)NC2=NC3C=CSC3C(=O)N2)c(SCOc2ccccc2)cc1Cl,IC50,Integrase,-,-,strand transfer,HIV,70 µM
CC(C)=CCC/C(C)=C/CC/C(C)=C/CC/C(C)=C/CC/C(C)=C/CC/C(C)=C/Cc1cc(O)ccc1O,IC90,Reverse transcriptase,-,-,nucleotide incorporation,HIV-2,2.6 µM
Cc1cc(S(=O)(=O)/[NH+]=C2/N=C3C=C(c4ccccc4)SC3C(=O)N2Cc2ccccc2)c(S)cc1Cl,IC50,Integrase,-,-,strand transfer,HIV,6 µM
CC(C)C(=O)c1cn2c(c(O)c1=O)C(=O)N(Cc1cccc(Cl)c1)CC2,IC50,Integrase,-,-,ELISA,HIV-1,<0.01 µM
Nc1ccn([C@H]2CC[C@@H](COP(=O)(O)OP(=O)(O)OP(=O)(O)OP(=O)(O)OC[C@@H]3CC[C@H](n4ccc(N)nc4=O)O3)O2)c(=O)n1,IC50,Reverse transcriptase,-,RT-K65R,nucleotide incorporation / radiometric,HIV,11 µM
Cc1cc(S(=O)(=O)/[NH+]=C2/N=C3C=C(c4ccc(Cl)cc4)SC3C(=O)N2Cc2ccccc2)c(S)cc1Cl,IC50,Integrase,-,-,strand transfer,HIV,4 µM
Cc1cn([C@H]2CC[C@@H](COP(=O)(O)OP(=O)(O)OP(=O)(O)OP(=O)(O)OC[C@@H]3CC[C@H](n4cc(C)c(=O)[nH]c4=O)O3)O2)c(=O)[nH]c1=O,fold resistance,Reverse transcriptase,-,RT-D67N K70R T215Y K219Q,nucleotide incorporation / radiometric,HIV,0.107
CCCC[C@H](NC(=O)[C@H](C)NC(=O)[C@H](CCC(=O)O)NC[C@H](Cc1ccccc1)NC(=O)[C@H](CC(C)C)NC(=O)[C@@H](NC(=O)[C@@H](N)CCCN=C(N)N)C(C)C)C(N)=O,IC50,Protease,-,PR-M46L,HPLC,HIV,<0.075 µM

For reference, 5 entries again:

Cc1ccc(Cl)cc1Nc1nc(C(F)(F)F)ccc1C(=O)NN1CCN(c2ccccc2)CC1 ; endpoint: IC50 ; target: RNase H ; method: RNase H / absorbance ; organism: HIV-1 ; result: >100 µM
Nc1nc2c(ncn2[C@H]2CC[C@@H](COP(=O)(O)OP(=O)(O)OP(=O)(O)OP(=O)(O)OC[C@H]3O[C@@H](n4cnc5c(N)ncnc54)[C@H](O)[C@@H]3O)O2)c(=O)[nH]1 ; endpoint: fold resistance ; target: Reverse transcriptase ; changes: RT-M41L T215Y ; method: nucleotide incorporation / radiometric ; organism: HIV ; result: 0.29
CC1=C(CCC(=O)O)c2cc3[nH]c(cc4nc(cc5[nH]c(cc1n2)c(CCC(=O)O)c5CC(=O)O)C(CCC(=O)O)=C4C)c(CCC(=O)O)c3CC(=O)O ; endpoint: inhibition ; target: gp120 ; dose: 60 µg/mL ; organism: HIV-1 ; result: 40.3%
Cc1ccc(Cn2cccc2/C=C/C(=O)CC(=O)C(=O)O)c(C)c1 ; endpoint: inhibition ; target: RNase H ; dose: 100 µM ; changes: N474A ; method: substrate cleavage / fluorescence ; organism: HIV-1 ; result: 16%
CCCC[C@H](NC(=O)[C@H](C)NC(=O)[C@H](CCC(=O)O)NC[C@H](Cc1ccccc1)NC(=O)[C@H](CC(C)C)NC(=O)[C@@H](NC(=O)[C@@H](N)CCCN=C(N)N)C(C)C)C(N)=O ; endpoint: IC50 ; target: Protease ; changes: PR-M46L ; method: HPLC ; organism: HIV ; result: <0.075 µM

Two numbers with a dash give a range or band. Rows are shuffled and stem from different studies. ICn: concentration for n% inhibition. Inhibition is in % at the dose shown (toxicity tests: loss of growth or viability). An empty or dashed field is not shown.